Measurements reported in article PMC11944577.

By UniProt entry, the sequences of proteins in these tests, tags left out. Where a name states a change or a piece, a line headed by the entry shows the natural chain unless it says otherwise.
UniProt Q9RDT5: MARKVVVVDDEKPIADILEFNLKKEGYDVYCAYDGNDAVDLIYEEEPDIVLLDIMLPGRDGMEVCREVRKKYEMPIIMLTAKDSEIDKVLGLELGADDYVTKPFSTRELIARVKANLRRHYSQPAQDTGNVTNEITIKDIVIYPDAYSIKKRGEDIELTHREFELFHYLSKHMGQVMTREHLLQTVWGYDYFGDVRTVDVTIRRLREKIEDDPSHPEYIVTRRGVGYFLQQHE

Tests used:
[1] = biological target: WalR (phosphorylated by WalK + ATP) (UniProt Q9RDT5); experiment: EMSA; conditions: WalK 1 uM, 5 mM ATP, recombinant protein, protein details: His, probe letters rebuilt from the primers and the genome
[2] = biological target: T1, MgrA (Staphylococcus aureus XN108) (UniProt P0C1S0); experiment: EMSA; conditions: MgrA 0-4 uM, dose-dependent; recombinant protein; residues 1-147; label: biotin (cap-F-biotin primer); probe letters rebuilt from the primers and the genome
T1 sequence (looked up): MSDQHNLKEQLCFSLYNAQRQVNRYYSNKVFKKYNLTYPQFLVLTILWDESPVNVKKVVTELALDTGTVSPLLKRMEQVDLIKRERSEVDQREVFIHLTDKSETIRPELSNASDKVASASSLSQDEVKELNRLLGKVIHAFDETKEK

[3] = biological target: WalR (phosphorylated by WalK + ATP) (UniProt Q9RDT5); experiment: competition with a labelled probe; conditions: 300-fold unlabelled vs biotin PmgrA, recombinant protein, protein details: His, probe letters rebuilt from the primers and the genome

Sequence: AACGACTAGTTAAGAAAAATTGGAAAATAAATGCTTTTAGCATGTTTTAATATAACTAGATCACAGAGATGTGATGGAAAATAGTTGATGAGTTGTTTAATTTTAAGAATTTTTATCTTAATTAAGGAAGGAGTGATTTCAATGGCACAAGATATCATTTCAACAATCGGTGACTTAGTAAAATGGATTATCGACACAGTGAACAAATTCACTAAAAAATAA (double strand) [Pagr probe]
- binding result ([1]; positive control, label: biotin (agr-F-biotin primer)): binds

Sequence: TTCTAATGTACTTTCCATTATTTACCTCCCTTAAAAATTTTCATTAAAATTGGTATTATATATATAGTATTTACATATTACATATCGTTTAAACAATTAATTACTTTTAAACCGAATTATTTTCGCCTTTTTATTTATATGAAATTAAAAATAATTATACTCTAAAGTAGTAATATTTTGTGAAAAGTGTACCAATCTTAATACTTTCTTTATTAAAAAAATTGATTGTCTAGGTTGTATCTCTCTGAAGATTTGGCAATAAAGAAAAGCCGATAACCGTATAATGATTATCGACTTTAAGTTTATGTGGCATTTTTTACTTTTGTAATTTCAGGTGAGTTAGATGAT (double strand) [Pcap probe]
- binding result [2]: binds

Sequence: TTTATATTCTCTTTTCTATTACAGTTATTTTTAAAAATGATAACATATATATTAAATTATCTTTTTGCTTGATTTAATCAAAAATATCTTCTAAACTTTAAACATACTTTAATTTTAGCATGGCATTGAATCAAAGAAAGTTGTGAATTAATAAACAATCAACTTTTTAATGATTACCAATCCGAAAAGAGAAAAAAACGGATAGTATGTCTGGAGGAGAACTTTA (double strand) [PmgrA probe]
- binding result ([1]; WalR 0-8 uM, dose-dependent, label: biotin (mgrA-F-biotin primer)): binds

Sequence: TTTATATTCTCTTTTCTATTACAGTTATTTTTAAAAATGATAACATATATATTAAATTATCTTTTTGCTTGATTTAATCAAAAATATCTTCTAAACTTTAAACATACTTTAATTTTAGCATGGCATTGAATCAAAGAAAGTTGTGAATTAATAAACAATCAACTTTTTAATGATTACCAATCCGAAAAGAGAAAAAAACGGATAGTATGTCTGGAGGAGAACTTTA (double strand) [PmgrA unlabelled competitor]
- binding result [3]: binds

For some of these results: Tags and fusion partners may be left off the protein sequences shown. For some of these results: The exact form of at least one protein or probe is not confirmed.
